Measurements as given in paper PMC10515872 (2023).

Target: PRD-0038 receptor-binding domain (RBD), wildtype (sarbecovirus PRD-0038 (Rhinolophus bat, …, biotin on the Avi tag (BirA)))
Assay: BLI

B1: R. alcyone ACE2-His (monomeric ectodomain) (domain or fragment)
chain: STPEDLAKIFLDNFNSEAENLSHQSSLASWEYNTNISDENIQKMDEAGAKWSDFYETQSKHAKNFSLEEIHNDTVKLQLQILQQSGSPVLSEDKSKRLNSILNAMSTIYSTGKVCRPNNPQECLLLEPGLDNIMGTSKDYNERLWAWEGWRAEVGKQLRPLYEEYVVLKNEMARGYHYEDYGDYWRRDYETEGSPDLEYSRDQLTKDVERIFAEIKPLYEQLHAYVRTKLMDTYPFHISPTGCLPAHLLGDMWGRFWTNLYPLTVPFAQKPNIDVTDAMLNQTWDAKRIFKEAEKFFVSIGLPHMTEGFWNNSMLTDPGDGRKVVCHPTAWDLGKGDFRIKMCTKVTMEDFLTAHHEMGHIQYDMAYASQPYLLRNGANEGFHEAVGEVMSLSVATPKHLKTMGLLSPDFLEDNETEINFLFKQALTIVGTLPFTYMLEKWRWMVFKGEIPKEEWMTKWWEMKRKIVGVVEPVPHDETYCDPASLFHVANDYSFIRYYTRTIFEFQFHEALCRIAKHDGPLHKCDISNSTDAGKKLHQMLSVGKSQPWTSVLKDFVDSKDMDVGPLLRYFEPLYTWLKEQNRNSFVGWNTDWSPYAD
Kd: 60.7 nM
